Columns and labels:
[1] = ref MacArthur et al. 2008; cited from earlier work
[2] = BLT mice and NHPs, p=1.0
[3] = ARV concentrations in brain tissue and plasma by LC-MS/MS, BLT mice; conditions: BLT vs hu-HSC-RAG

## maraviroc [MVC]
[1]
  blood plasma protein binding: ~ 76%
[2]
  brain tissue:plasma penetration ratio (median): 1
[3]
  fold higher brain tissue penetration in BLT mice compared to hu-HSC-RAG mice: 5 fold

Source: article PMC6579712 (Xenobiotica; the fate of foreign compounds in biological …, 2018)
